Laboratory results: PubChem BioAssay AID1259414 (Drosophila RNAi Screening Center, 2018)
In all, the deposit lists about 24,000 reagents; this is a random part of those with a known target gene and a result. In the full data, about 1,210 (5%) were called active. 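Inactive calls also include excluded dsRNAs with several or no targets, genes unexpressed in JW18, and well A1, regardless of score.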 Unmarked entries are inactive. A plus sign joins genes that one reagent is predicted to hit. Reagent sequences are not shown.

Assay: 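Genome-wide screen for host control of endosymbiont load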 (primary screen)
Cell system: Drosophila JW18 cells infected with Wolbachia
Reagents: long dsRNA against Drosophila genes, 0.25 µg dsRNA per well of a 384-well plate
Duration: 5 days
Treatment: cells persistently infected with Wolbachia before knock-down; no added drug
Measurement: 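Automated imaging of bacterial rRNA staining divided by host cell count, reported as plate-normalised robust z-score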
Reading the numbers: Wolbachia per cell robust z: higher = more Wolbachia per host cell than the plate typical
Call rule: 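Hit when robust z is 1.5 or more, or -1.5 or less, in at least two of three replicates; excludes dsRNAs with several or no targets, genes not expressed in JW18 and well A1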

no.	Gene	DRSC id	Wolbachia per cell robust z, rep 1	Wolbachia per cell robust z, rep 2	Wolbachia per cell robust z, rep 3
1	Gr93a (GeneID 42568)	DRSC14593	-2.08	-1.14	-1.67
2	Cog2 (GeneID 41870)	DRSC16987	-1.87	-0.74	0.125
3	Tsen15 (GeneID 246551)	DRSC41324	0.311	-0.616	-0.646
4	Not11 (GeneID 37839)	DRSC04204	-0.783	0.258	-0.206
5	oc (GeneID 31802)	DRSC25006	-0.178	0.326	-0.535
6	CG34208 (GeneID 5740805)	DRSC38718	1.41	-0.171	1.69
7	pyr (GeneID 36255)	DRSC24993	0.105	0.155	-0.3
8	RhoGAP1A (GeneID 5740235)	DRSC20649	-0.257	-0.905	-0.796
9	RhoGAP1A (GeneID 5740235)	DRSC20651	0.0948	-1.2	-0.275
10	AstA (GeneID 42947)	DRSC14634	-0.0515	-0.337	-0.523
11	CHKov1 (GeneID 43067)	DRSC01566	1.02	0.413	0.346
12	CHKov1 (GeneID 43067)	DRSC01696	-0.775	-1.26	-2.74
13	CHKov1 (GeneID 43067)	DRSC14258	0.563	0.773	-0.315
14	CHKov1 (GeneID 43067)	DRSC20937	-1.63	-2.68	-3.46
15	CHKov1 (GeneID 43067)	DRSC30063	0.139	0.225	0.874
16	CG33203 (GeneID 43414)	DRSC14876	-0.295	-0.235	-0.0323
17	CG33203 (GeneID 43414)	DRSC14877	-0.414	-6.07	0.607
18	CG33203 (GeneID 43414)	DRSC23428	0.727	-0.569	0.209
19	Rab6 (GeneID 34636)	DRSC03404	-1.27	-0.25	-0.362
20	Rab6 (GeneID 34636)	DRSC25636	0.0147	-0.0198	-1.98
21	ItgaPS4 (GeneID 36693)	DRSC06630	-0.368	-0.75	-0.152
22	Rpn9 (GeneID 42802)	DRSC16840	0.318	1.26	1.28
23	Rpn9 (GeneID 42802)	DRSC27177	1.84 (active)	0.816	1.92
24	Arl5 (GeneID 38931)	DRSC10785	-0.0532	0.54	-0.632
25	Arl5 (GeneID 38931)	DRSC25831	-0.916	0.295	-1.02
26	RpL13 (GeneID 34329)	DRSC03416	1.89	1.18	0.433
27	Cpr65Ec (GeneID 38775)	DRSC11025	-0.156	-1.42	-1.25
28	Cpr65Ec (GeneID 38775)	DRSC24191	-0.415	-1.29	-1.47
29	Mtpalpha (GeneID 34276)	DRSC01994	0.117	-0.207	0.561
30	TotB (GeneID 42474)	DRSC15842	0.47	0.426	0.949
31	Pfdn5 (GeneID 42647)	DRSC16183	1.19	1.49	-0.0663
32	CG4630 (GeneID 36458)	DRSC06874	-0.205	-1.39	-3.98
33	CG4630 (GeneID 36458)	DRSC26971	0.325	0.374	-0.587
34	CG31869 (GeneID 34490)	DRSC02582	-0.168	-0.5	0.762
35	CG31869 (GeneID 34490)	DRSC02674	0.872	-0.0603	-6.28
36	Unc-115a (GeneID 261629)	DRSC12749	0.865	0.623	0.336
37	Unc-115a (GeneID 261629)	DRSC24907	0.151	-7.33	-0.598
38	CG9389 (GeneID 40347)	DRSC11857	-1.34	1.08	0.43
39	CG9297 (GeneID 41688)	DRSC16469	0.734	1.42	-0.36
40	CG9297 (GeneID 41688)	DRSC25256	-0.487	0.352	1.81
41	PIG-O (GeneID 37118)	DRSC06123	-0.628	-1.11	-0.31
42	Agpat2 (GeneID 34176)	DRSC03532	0.29	-1.48	-0.0424
43	Agpat2 (GeneID 34176)	DRSC27901	-0.928	0.317	-0.828
44	Tollo (GeneID 44497)	DRSC11305	-0.11	-0.0149	-2.48

A few values from the list:
Result for PIG-O (GeneID 37118) [DRSC06123] in “Wolbachia per cell robust z, rep 2”: -1.11
Under “Wolbachia per cell robust z, rep 1”, Rab6 (GeneID 34636) [DRSC25636] shows 0.0147
For “Wolbachia per cell robust z, rep 3”, CG9297 (GeneID 41688) [DRSC25256] shows 1.81
Entry for RpL13 (GeneID 34329) [DRSC03416] under “Wolbachia per cell robust z, rep 3”: 0.433
Value of Pfdn5 (GeneID 42647) [DRSC16183] under “Wolbachia per cell robust z, rep 2”: 1.49
Result of Agpat2 (GeneID 34176) [DRSC03532] under “Wolbachia per cell robust z, rep 1”: 0.29

More reagents follow:
no.	Gene	DRSC id	Wolbachia per cell robust z, rep 1	Wolbachia per cell robust z, rep 2	Wolbachia per cell robust z, rep 3
45	Taf4 (GeneID 39765)	DRSC11297	-1.25	0.325	-1.23
46	Taf4 (GeneID 39765)	DRSC25921	-0.0465 (active)	2.23	1.86
47	RpL18A (GeneID 36985)	DRSC07538	1.01	1.57	1.35
48	CG33301 (GeneID 2768917)	DRSC02778	0.868	0.366	-0.684
49	CG33301 (GeneID 2768917)	DRSC25325	0.769	1.23	0.772
50	CG9877 (GeneID 37666)	DRSC04587	0.989	1.09	-0.688
51	CG9877 (GeneID 37666)	DRSC25386	0.734	1.19	-1.26
52	Cpr65Ax2 + Cpr65Ax1	DRSC10341	-0.425	0.354	-1.56
53	Targ (GeneID 36630)	DRSC06206	0.943	1.22	0.265
54	Cox17 (GeneID 32439)	DRSC20145	0.247	-3.09	0.0616
55	CG3062 (GeneID 31396)	DRSC18572	-1.65	-2.71	-0.342
56	CG13674 (GeneID 38921)	DRSC10033	0.148	0.554	0.532
57	CG13674 (GeneID 38921)	DRSC27828	0.393	0.719	0.246
58	Or45a (GeneID 35958)	DRSC07487	0.845	-0.76	-2.68
59	Or45a (GeneID 35958)	DRSC27527	-2.12	-1.7	-1.6
60	Cdk2 (GeneID 42453)	DRSC16921	0.197	-3.71	1.5
61	CG17930 (GeneID 41979)	DRSC15292	-1.28	-2.19	-0.438
62	CG17930 (GeneID 41979)	DRSC28230	0.342	0.947	0.632
63	Fum3 (GeneID 39281)	DRSC10592	-3.52	-1	0.231
64	Fum3 (GeneID 39281)	DRSC25432	1.2	-12.7	1.02
65	wde (GeneID 36133)	DRSC05955	0.888	0.172	1.04
66	CG13449 (GeneID 39695)	DRSC09996	-0.527	1.35	0.889
67	CG31093 (GeneID 43116)	DRSC15689	0.866	-0.133	-3.64
68	KP78a + KP78b	DRSC16721	-3.49	0.0876	0.478
69	KP78a + KP78b	DRSC29265	-0.754	-0.199	0.765
70	CR40441 (GeneID 10178882)	DRSC22916	0.607	0.798	1.17
71	Ciao1 (GeneID 36655)	DRSC06170	-5.83	-0.815	-0.137
72	ttv (GeneID 36614)	DRSC07709	0.731	-0.0777	0.0347
73	ttv (GeneID 36614)	DRSC26088	-0.397	0.161	3.68
74	bin3 (GeneID 35552)	DRSC04919	0.352	-1.9	0.982
75	CG1503 (GeneID 33090)	DRSC20512	1.35 (active)	-4.48	-2.93
76	CG6026 (GeneID 42287)	DRSC15950	-0.166	-0.295	-5.71
77	Rim (GeneID 42150)	DRSC16224	0.496	0.441	-0.00604
78	Rim (GeneID 42150)	DRSC16226	-4.92	-1.48	-1.18
79	Rim (GeneID 42150)	DRSC16227	1.12	0.186	0.776
80	Rim (GeneID 42150)	DRSC22406	-1.51	-1.46	-1.21
81	fid (GeneID 43148)	DRSC14885	0.89	-2.09	1.14
82	fid (GeneID 43148)	DRSC16464	-0.361	-2.31	-3.03
83	fid (GeneID 43148)	DRSC23529	1.26	1.7	1.57
84	fid (GeneID 43148)	DRSC25230	-0.364	-0.212	-5.22
85	Cpes (GeneID 37782)	DRSC04475	0.823	-1.31	0.258
86	Cpes (GeneID 37782)	DRSC27503	-0.764	-0.0733	0.783
87	CG34307 (GeneID 5740370)	DRSC38659	0.489	0.367	1.93
